Earlier results on 1 molecule are cited in patent publication US4325960A, “6-Amidinopenicillanic acid derivatives including the radical of a β-lactamase inhibitor” (Leo Pharmaceutical Products Ltd. A/S (Lovens Kemiske Fabrik, priority 1979, dated 1982).

The data set relates to β-lactamases. The following applies: cited from earlier work.

As for `CC1(C)S[C@@H]2[C@H](Br)C(=O)N2[C@H]1C(=O)O`, the β-lactamase inhibition entry is on record as “powerful inhibitors of a wide range of β-lactamases”.
